Some compounds share one wording; it may come from a single statement.
Key:
[1] = system: gut microbiota; test: Effect of QSIs on gut (cecal) microbiota, 16S rRNA analysis; format: in vivo, chickens; details: for Enterococcus relative abundance in treated group: NC 4% (QSI-5 sentence), 4.3% (QSI-8 sentence); for Erysipelatoclostridium relative abundance in treated group: NC 7.2%; for Firmicutes relative abundance in treated group: NC 91.4%; for alterations in the gut microbiota at the phylum level: compared to the NC or PC group, P > 0.05; for alpha diversity (phylogenetic diversity, richness, evenness) of the gut microbiota: compared with both NC and PC
[2] = Body weight gain and feed conversion ratio in field simulated trial; format: in vivo, chickens; details: to day 42; average overall feed intake/average BWG; not significant vs NC
[3] = cecum, printed as NC to treated, NC 0%
[4] = cecum, printed as NC to treated
[5] = cecum, printed as NC to treated, not significant

Row | SMILES | increase in abundance of Butyricicoccus in the gut ([1]; P < 0.05) [folds] | Bacillus relative abundance in treated group [1, 3] [%] | Butyricicoccus relative abundance in treated group [1, 3] [%] | Lactobacillus relative abundance in treated group [1, 3] [%] | Enterococcus relative abundance in treated group [1, 4] [%] | Erysipelatoclostridium relative abundance in treated group [1, 4] [%] | Firmicutes relative abundance in treated group [1, 5] [%] | alterations in the gut microbiota at the phylum level [1] | alpha diversity (phylogenetic diversity, richness, evenness) of the gut microbiota [1] | Clostridium sensu stricto 1 relative abundance in treated group [1, 3] [%] | Ruminiclostridium 5 relative abundance in treated group [1, 3] [%] | Flavonifractor relative abundance in treated group ([1]; cecum, printed as NC to treated, NC 2.9%) [%] | Ruminococcus (torques group) relative abundance in treated group ([1]; cecum, printed as NC to treated, NC 9%) [%] | Overall feed conversion ratio (FCR) [2] | increase in abundance of Lactobacillus in the gut ([1]; P < 0.05) [folds] | Escherichia-Shigella relative abundance in treated group ([1]; cecum, printed as 6.7% to 11.9%) [%] | Proteobacteria relative abundance in treated group ([1]; cecum, printed as NC to treated, NC 8.6%, not significant) [%]
1 | CCc1ccccc1NC1NC(c2c(C)nc3ccccn23)=CS1 (stereo not drawn) [QSI-8] | > 4 | 1.8 | 4.3 | 4 | 0 | 16.6 | 95 | did not cause significant alterations | no difference | – | – | – | – | – | – | – | –
2 | Cc1ccc(CN2CCN(CCCc3ccccc3)CC2)cc1 [QSI-5] | – | – | – | 1.1 | 0 | 10.8 | 95 | did not cause significant alterations | no difference | 2.1 | 3.3 | 6 | 6 | 1.48 | – | – | –
3 | OCCC1CN(C2CCN(c3ccccc3)CC2)CCN1CCCc1ccccc1 (stereo not drawn) [QSI-10] | – | – | – | 31 | – | – | – | did not cause significant alterations | no difference | – | – | – | – | – | > 30 | 11.9 | 13.7
4 | COc1cc(NS(=O)(=O)c2ccc(N)cc2)nc(OC)n1 [SDM, sulfadimethoxine, reference compound] | – | – | – | – | – | – | – | – | – | – | – | – | – | 1.49 | – | – | –

From article PMC9241644, “Evaluation of Novel Quorum Sensing Inhibitors Targeting Auto-Inducer 2 (AI-2) for the Control of Avian Pathogenic Escherichia coli Infections in Chickens” (Microbiology Spectrum, 2022)
